Assay in all cases: pseudovirus neutralization IC50; higher = weaker neutralization
Assay [1] addresses SARS-CoV-2 Omicron BA.1 spike pseudovirus. The procedure: (§1)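 Single-round VSV luciferase pseudovirus mixed with antibody dilutions for 1 h and put on Huh-7 cells for about a day; IC50 from the dose curve.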
Assay [2] concerns the target SARS-CoV-2 Omicron BA.2 spike pseudovirus. The procedure:
as §1

Assay [3] addresses SARS-CoV-2 Omicron BA.2.75 spike pseudovirus. The procedure:
as §1

For assay [4], the target named is SARS-CoV-2 Omicron BA.5 spike pseudovirus. The procedure:
as §1

Assay [5] concerns the target SARS-CoV-2 Omicron BQ.1.1 spike pseudovirus. The procedure: as §1
Assay [6] has as its target SARS-CoV-2 Omicron XBB spike pseudovirus. The procedure:
as §1

Assay [7] concerns the target SARS-CoV-2 early D614G spike pseudovirus. The procedure:
as §1

The text below walks through data of the supplement of paper PMC9931576.

Where a chain is given by its changes, count along the chain named. Human monoclonal antibodies against the spike receptor-binding domain (heavy:light variable regions). IC50 against pseudoviruses bearing the spike of naturally observed variants; lower = stronger; >10 µg/ml means not reached at the top dose. No active / inactive call. The stated detection limit is 0.0005 µg/ml; values near or below 0.001 µg/ml lie at the floor of the assay. Some results are limits rather than exact numbers.

B1: BD57-0143 (protein)
chain 1: QVQLVQSGTEVKKPGSSVKVSCKASGGTFSISAFNWVRQAPGQGLEWMGRIIPVPDITNYAQKFQGRVTITADKSTSTAYMELRSLRSEDTAVYYCASPFKRGYSGYDFFDYGLDVWGRGTTVIVSS
chain 2: DIQMTQSPSSLSASVGDRVTITCQASQDINNNLNWYQHKPGKAPSLLIYDASTLQTGVPSRFSGGGSGTHFTFTVSSLQPEDIATYYCQQSDELPLTFGGGTKVEIK
In the case of B1, the “pseudovirus neutralization IC50” value in assay [1], in assay [2], in assay [3], in assay [4], in assay [5] and in assay [6] was greater than 10 mg/L each time. The “pseudovirus neutralization IC50” value in assay [7] worked out at 0.0191 mg/L.

B2: BD57-0132 (protein)
chain 1: EVQLVESGGGLVKPGGSLRLSCVASGFTFSSYSMNWVRQAPGKGLEWVSSISRSDTTTYYADSVRGRFTISRDSAKNSLYLQMNSLRAEDTAVYYCARGDLWGFDLVMEVAGHFDYWGQGTLVTVSS
chain 2: EIVLTQSPGTLSLSPGERATLSCRASQSVSSSSLAWYQQKPGQAPRLLIYGAFSRATGIPDRFSGSGSGTDFTLTISRLEPEDFAVYYCQQFGSSPLYTFGQGTKLEIK
As to B2, the “pseudovirus neutralization IC50” value in assay [1], in assay [2], in assay [3], in assay [4], in assay [5] and in assay [6] was greater than 10 mg/L throughout. The “pseudovirus neutralization IC50” value in assay [7] was greater than 10 mg/L.

B3: COVOX-150 (protein)
chain 1: QVQLVESGGGLIQPGGSLRLSCAASGVTVSSNYMSWVRQAPGKGLEWVSIIYSGGTTYYADSVKGRFTISRDSSMNTLYLQMNSLRAEDTAVYYCARDLMVYGIDVWGQGTTVTVSS
chain 2: IVMTQSPSSLSASVGDRVTITCRASQGISSYLAWYQQKPGKAPKLLIYAASTLQSGVPSRFSGSGSGTDFTLTISSLQPEDFATYYCQQLDSYPPGYTFGQGTKVDIK
In the case of B3, the “pseudovirus neutralization IC50” value in assay [1], in assay [2], in assay [3], in assay [4], in assay [5] and in assay [6] was greater than 10 mg/L in each case. In addition, the “pseudovirus neutralization IC50” value in assay [7] came out at 0.084 mg/L.

B4: BD56-1950 (protein)
chain 1: QVQLVESGGGVVQPGRSLRLSCAASGFSFRTYPMHWVRQAPGKGLEWVAVISHDGTEKYYTDSLKGRFTISRDNSKNTLFLQMNSLRAEDTAVYYCAKDWVAGYCRGGRCNSYNGLDVWGQGTTVTVSS
chain 2: DFMLTQPHSVSESPGKTVTISCTRSGGTIVSNYVQWYQQRPGSAPATVIYEDDQRPSGVPDRFSGSIDSSSNSASLTISGLETEDEADYYCQSHDGSKMIFGGGTKLTVL
For B4, the “pseudovirus neutralization IC50” value in assay [1], in assay [2], in assay [3], in assay [4], in assay [5] and in assay [6] was greater than 10 mg/L throughout. Also, in assay [7], the “pseudovirus neutralization IC50” value is greater than 10 mg/L.

B5: BD57-0125 (protein)
chain 1: EVQLAESGGGLVQPGGSLRLSCVASGFSFSTYDMHWVRQTPGKGLEWVSAIGTAGDTYYPDSVKGRFTISRENARNSLYLEMNSLRAGDTAVYFCTRALHSVVRGGLQTYYYYYMDVWGKGTTVAVSS
chain 2: DIQMTQSPSSLSASVGDTVTITCRASQTINSYLNWYQQKPGKAPKLLIFAASTLQTGVPSRFSGSGSGTEFTLTISSLQPEDFATYYCQQSYIMPGWTFGPGTTVEIK
For the molecule B5, the “pseudovirus neutralization IC50” value in assay [1], in assay [2], in assay [3], in assay [4], in assay [5] and in assay [6] was greater than 10 mg/L throughout. Besides, in assay [7], the “pseudovirus neutralization IC50” value was greater than 10 mg/L.

B6: BD57-0131 (protein)
chain 1: QVQLVESGGGVVQPGTSLRLSCAASGFTFNRYGLHWVRQAPGKGLEWVAVMSFDGSHIYYAHSVKGRFTISRDNSRNTLYLQMRSLRAEDTAVYYCVRDSGDGITGTTGWLAPWGQGALVTVSA
chain 2: SYVLTQPPSVSVAPGQTAKITCEADSIGSKSVHWYQQKSGQAPVLVVYDDSDRPSGIPERFSGSNSGNTATLTISRVEAGDEADYYCQVWDGSGDPFVFGSGTKVTVL
In the case of B6, the “pseudovirus neutralization IC50” value in assay [1] was 2.43 mg/L; in assay [2], 2.38 mg/L; in assay [3] it was 3.91 mg/L; in assay [4], 1.89 mg/L; in assay [5], greater than 10 mg/L; in assay [6], greater than 10 mg/L. Besides, the “pseudovirus neutralization IC50” value in assay [7] was greater than 10 mg/L.

B7: BD57-0135 (protein)
chain 1: QVLLVESGGGVVQPGRSLRLSCAASGFPFSTFGLHWVRQSPGKGLEWVSLISYDGANKVYADSVKGRFTISRDNSKNTLYLQMKSLRPEDTAVYYCARDPGDGITGTTGWLGPWGQGTLVTVS
chain 2: B6 chain 2 with K19R, E23G, A24G, S39P, A79V, G92S, G94T, F97Y, S101I
B7: the “pseudovirus neutralization IC50” value was 2.55 mg/L in assay [1]; 1.97 mg/L in assay [2]; 2.58 mg/L in assay [3]; 2.46 mg/L in assay [4]; greater than 10 mg/L in assay [5]; greater than 10 mg/L in assay [6]. Moreover, the “pseudovirus neutralization IC50” value in assay [7] is greater than 10 mg/L.

B8: BD57-0150 (protein)
chain 1: QVQLQESGPGLVKPSETLSLTCTVSGGSISSSSYYWGWIRQPPGKGLEWIGSIYHSGTTYYNPSLKSRVSISVDTSKNHFSLKLNSVTAADTAMYYCARELLLIDVWGQGTTVTVSS
chain 2: DIQMTQSPSSLSASVGDRVTITCQASQDINNYLSWYQQKPGKAPKLLIYDASNLQTGVSSRFSGSGSGTDFTFTISSLQAEDIATYYCQHYDNLPPGGIFGPGTKVDIK
On to B8, for which the “pseudovirus neutralization IC50” value in assay [1] was 0.901 mg/L; in assay [2], 0.409 mg/L; in assay [3], 0.644 mg/L; in assay [4], 3.87 mg/L; in assay [5], greater than 10 mg/L; in assay [6], greater than 10 mg/L. For the same molecule, the “pseudovirus neutralization IC50” value in assay [7] came to 0.199 mg/L.

B9: BD57-0124 (protein)
chain 1: EVQLVESGGGLVKPGGSLRLSCAASGFSFSDAWMTWVRLAPGKGLEWVGHIKSKTDGGTTHHAAPVKGRFTISRDDSKNTLYLQMSSLKTEDTAVYYCIWSDTLTLYIDYGMDVWGQGTTVTVSS
chain 2: DIQMTQSPSTLSASVGDRVTITCRASQSISTWLAWYQQKPGKAPELLIYKASTLESGVPSRFSGSGSGTEFTLTISSLQPDDSATYYCQQYNNYYWTFGQGTKVEIK
Take B9: the “pseudovirus neutralization IC50” value is 1.63 mg/L in assay [1]; 1.87 mg/L in assay [2]; 3.3 mg/L in assay [3]; 2.37 mg/L in assay [4]; 5.03 mg/L in assay [5]; 4.8 mg/L in assay [6]. Further, the “pseudovirus neutralization IC50” value in assay [7] was greater than 10 mg/L.

B10: BD57-0117 (protein)
chain 1: QIQLVQSGAEVKKPGSSVKLSCTAFGGTLNSYAINWVRQAPGQGLEWMGRIIPIFSVVNYAEKFQDRVTITADTSTATGSMGTATFYMELTTLTSEDTAVYFCARDRPPFGAGRIWGQGTLVSVST
chain 2: DIQMTQSPSSLSASVGDRVTITCQASQDIGKFLNWYQQKPGKSPQLLISEASTLETGVPSRFSGGGSGTDFHFTISSLQPEDIATYYCQQYDHFLTFGPGTKVNVK
In the case of B10, the “pseudovirus neutralization IC50” value in assay [1] was 0.797 mg/L; in assay [2] it was 0.000523 mg/L; in assay [3] it was 0.000485 mg/L; in assay [4] it was 0.000888 mg/L; in assay [5] it was greater than 10 mg/L; in assay [6], greater than 10 mg/L. In addition, in assay [7], the “pseudovirus neutralization IC50” value turned out to be 0.278 mg/L.

B11: BD57-0155 (protein)
chain 1: QVQLVESGGGVVQPGRSLRLSCAASGFTFRNYGMHWVRQPPGKGLEWVALISYDGSDKYYADSVKGRFTISRDSSKNTLFLQMNSLRAEDTAVYYCVKGPWYSSSWEYYFEYWGQGTLVTVSS
chain 2: DIQMIQSPSSLSASLGDRVTITCRASQSINSHLNWYQQKPGKAPNLLIYDASNLQSGVPSRVSGSGSGTDFALTISSLQPEDFATYYCQQSYSIPLTFGGGTKVEIK
Regarding B11, the “pseudovirus neutralization IC50” value in assay [1] was 5.16 mg/L; in assay [2] it was 5.57 mg/L; in assay [3], 3.28 mg/L; in assay [4], greater than 10 mg/L; in assay [5], greater than 10 mg/L; in assay [6], greater than 10 mg/L. Further, the “pseudovirus neutralization IC50” value in assay [7] was greater than 10 mg/L.

B12: BD57-0142 (protein)
chain 1: QVQLQESGPGLVKPSETLSLTCTVSGGSISSSIYYWAWIRQPPGKGLEWIGSINYSGNTYHSPSLKSRVTISEDTSQNQFSLKLISVTAADTAIYYCARHELGRYYGSGTYHTDDCFDYWGPGTLVIVSS
chain 2: QSVVTQPPSASGTPGQRVTISCSGSNFNIGSNPVTWYQQFPGTAPKLLIYTNNQRGPGVPDRFSGSKSGTSASLAISGLQSEDEADYYCATWDDSLNGPVFGGGTKLTVL
Consider B12, for which the “pseudovirus neutralization IC50” value was 1.6 mg/L in assay [1]; 1.94 mg/L in assay [2]; 2.7 mg/L in assay [3]; 3.07 mg/L in assay [4]; greater than 10 mg/L in assay [5]; 3.57 mg/L in assay [6]. In addition, the “pseudovirus neutralization IC50” value in assay [7] is 1.14 mg/L.
